Measured values from several laboratories, pooled; numbers as filed in NIAID ChemDB.

Common to all: tests in culture; agent: HIV-1; measure: EC50

Conditions beyond the fields shown may differ between rows.

smiles	mutations	strain	setting	read by	cell line	result
Cc1cn([C@H]2C[C@H](N=[N+]=[N-])[C@@H](CO)O2)c(=O)[nH]c1=O	A114S/M184V	Clinical isolate	-	single cycle / fluorescence	PBMC	0.00246 µM
CC(=O)N1CCC(C(=O)N(CCCN2CCC(Cc3ccc(C(N)=O)cc3)CC2)c2ccc(C)c(Cl)c2)CC1	-	R5X4 subtype B_3 recombinant	-	luciferase	U87 (CD4+ CCR5+) + U87	0.0011 µM
CC[C@@H](C)[C@H](C(=O)O)N1C[C@H](CN2CCC(c3cc(Cc4ccc(OCC(F)(F)F)cc4)nn3CC)CC2)[C@@H](c2cccc(F)c2)C1	-	BaL	50% human serum	β-galactosidase	HeLa	<0.1 µM
Cc1occc1C(=S)Nc1ccc(Cl)c(/C=N/OC(C)(C)C)c1	RT-T139I	Calanolide A-resistant (RT T139I)	-	XTT	CEM + CEM-SS	0.3 µM
Cc1cn([C@H]2C[C@H](N=[N+]=[N-])[C@@H](CO)O2)c(=O)[nH]c1=O	RT-M41L D67N T69N K70R T215F K219E	NRTI resistant	-	luciferase	HeLa	0.344 µM
CCn1nc(Cc2ccc(C#N)cc2)cc1C1CCN(C[C@H]2CN([C@@H](C(=O)O)C(C)C)C[C@@H]2c2cccc(F)c2)CC1	-	BaL	50% human serum	β-galactosidase	HeLa	<0.1 µM
Cc1ccnc2c1NC(=O)c1cccnc1N2C1CC1	RT-M184I	3TC-RS (RT-M184I)	-	cytopathic effect / XTT	CEM + CEM-SS	0.01 µM
Cc1cc(S(N)(=O)=O)ccc1NC(=O)COc1ccc(Cl)cc1C(=O)c1cc(Cl)cc(C#N)c1	RT-E138K	NNRTI-resistant (RT E138K)	-	β-galactosidase	MAGI	0.0013 µM
Cc1cn([C@H]2C[C@H](N=[N+]=[N-])[C@@H](CO)O2)c(=O)[nH]c1=O	RT-Y181C	UC82-R (RT-Y181C)	-	cytopathic effect / XTT	CEM + CEM-SS	0.01 µM
CCc1c(C(=O)c2cc(C)cc(C)c2)n(CC2CC=CC2)c(=O)[nH]c1=O	RT-T139I	NL4-3	-	cytopathic effect / XTT	CEM + CEM-SS	0.002 µM
CC(C)=CCOc1cc(NC(=S)c2ccoc2C)ccc1Cl	RT-T139I	Calanolide A-resistant (RT T139I)	-	XTT	CEM + CEM-SS	0.04 µM
CO[P@](=O)(c1cc(C)cc(/C=C/C#N)c1)c1c(C(N)=O)[nH]c2ccc(Cl)cc12	-	NL4-3	-	-	MT-4	0.0017 µM
CCn1nc(Cc2ccc(S(=O)(=O)c3ccccc3)cc2)cc1C1CCN(C[C@H]2CN([C@@H](C(=O)O)C3CCCCC3)C[C@@H]2c2cccc(F)c2)CC1	-	BaL	-	β-galactosidase	HeLa	<0.0004 µM
CC(C)=CCN1Cc2cc(Cl)cc3[nH]c(=S)n(c23)C[C@@H]1C	RT-Y181C	HXB2	-	plaque count	HT4 + HT4 LacZ-1	4.5 µM
Cc1cn([C@H]2C[C@H](N=[N+]=[N-])[C@@H](CO)O2)c(=O)[nH]c1=O	D437N L441P	IIIB	-	p24 / ELISA	MT-2	0.153 µM
Cc1ccnc2c1NC(=O)c1cccnc1N2C1CC1	TC-2	Clinical isolate	-	ELISA	C8166	0.0962 µM
CCn1nc(Cc2ccccc2F)cc1C1CCN(C[C@H]2CN([C@@H](C(=O)O)C(C)C)C[C@@H]2c2cccc(F)c2)CC1	-	BaL	-	β-galactosidase	HeLa	<0.011 µM
Cc1occc1C(=S)Nc1ccc(Cl)c(/C=N/OC(C)(C)C)c1	-	RF	-	cytopathic effect / XTT	CEM + CEM-SS	0.1 µM
Nc1nc(NC2CC2)c2ncn([C@H]3C=C[C@@H](CO)C3)c2n1	RT-M41L V118I M184V	Recombinant	-	luciferase	HeLa	4.28 µM
CCCc1cc(=O)oc2c3c(c4c(c12)OC(C)(C)C=C4)O[C@H](C)[C@@H](C)[C@@H]3O	RT-M184V	3TC-resistant (RT M184V)	-	XTT	CEM + CEM-SS	0.3 µM
Cc1ccc(S(=O)(=O)N(CC(C)C)C[C@@H](O)[C@H](Cc2ccccc2)NC(=O)O[C@H]2CO[C@H]3OCC[C@H]32)cc1	ATV-P36 darunavir-resistant mutant	IIIB	-	ATP	MT-2	0.0019 µM
C/C=C/CSc1cc(NC(=S)c2ccsc2C)ccc1Cl	RT-Y188C	NL4-3 (RT Y188C)	-	cytopathic effect / XTT	CEM + CEM-SS	0.6 µM
N#Cc1cc2[nH]c3ccccc3c2n(-c2ccc([N+](=O)[O-])cc2)c1=O	RT-M41L A62V S68N G112S M184V	Recombinant	-	luciferase	HeLa	>0.1769 µM
CCCc1cc(=O)oc2c3c(c4c(c12)OC(C)(C)C=C4)O[C@@H](C)[C@H](C)[C@@H]3O	RT-T139I	NL4-3	-	XTT	CEM + CEM-SS	11.9 µM
CCn1nc(Cc2ccc(C)cc2)cc1C1CCN(C[C@H]2CN([C@@H](C(=O)O)C(C)(C)C)C[C@@H]2c2cccc(F)c2)CC1	-	BaL	50% human serum	β-galactosidase	HeLa	<0.033 µM
Cc1ccnc2c1NC(=O)c1cccnc1N2C1CC1	-	IIIB	-	XTT	CEMx174 + CEM	0.1 µM
CC(C)CN(C[C@@H](O)[C@H](Cc1ccccc1)NC(=O)O[C@H]1CCOC1)S(=O)(=O)c1ccc(N)cc1	L441P	IIIB	-	p24 / ELISA	MT-2	0.0473 µM
Cc1cn([C@@H]2O[C@H](CO[Si](C)(C)C(C)(C)C)[C@@]3(OS(=O)(=O)C=C3N)[C@H]2O[Si](C)(C)C(C)(C)C)c(=O)[nH]c1=O	RT-Y181C	UC82-R (RT-Y181C)	-	cytopathic effect / XTT	CEM + CEM-SS	>10 µM
CC(C)=CCN1Cc2cc(Cl)cc3[nH]c(=S)n(c23)C[C@@H]1C	RT-L74V Y181C	-	-	-	MT-4	<3 µM
Cc1cn([C@H]2C[C@H](N=[N+]=[N-])[C@@H](CO)O2)c(=O)[nH]c1=O	-	CLADE E	-	RT activity	PBMC	0.1 µM

2 of the rows above, restated:

{"smiles": "CCCc1cc(=O)oc2c3c(c4c(c12)OC(C)(C)C=C4)O[C@H](C)[C@@H](C)[C@@H]3O", "mutations": "RT-M184V", "strain": "3TC-resistant (RT M184V)", "read by": "XTT", "cell line": "CEM + CEM-SS", "result": "0.3 µM"}
{"smiles": "Cc1ccnc2c1NC(=O)c1cccnc1N2C1CC1", "strain": "IIIB", "read by": "XTT", "cell line": "CEMx174 + CEM", "result": "0.1 µM"}

ECn is the concentration giving n% inhibition of infection, replication or growth. Blank or dashed fields: not listed here.